Experimental data published in US20230355708A1, “COMPOSITIONS FOR INHIBITING VIRAL ENTRY AND METHODS USING SAME” (priority 2020, published 2023).

Assay: cytotoxicity

In the case of `CC[C@H](C)[C@@H]1NC(=O)[C@H](CC(N)=O)NC(=O)[C@@H](N)CC(=O)NCCCC[C@@H](C(N)=O)NC(=O)[C@H](Cc2c[nH]c3ccccc23)NC(=O)[C@@H]2C[C@H](n3cc(-c4ccc(-c5ccc(C)s5)cc4)nn3)CN2C1=O`, the cytotoxicity is reported as “without cytotoxicity”.
